Experimental data: PubChem BioAssay AID504761 (Drosophila RNAi Screening Center, 2011)

Screen: 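Insect host genes that dengue virus relies on to spread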 (primary screen)
Cells: D.Mel-2 cells from Drosophila
Reagent: long dsRNA against Drosophila genes
Challenge: infection with dengue virus type 2; dose and infection time not stated
Measurement: 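Per well on two replicate plates, imaging gave the percent of cells positive for viral envelope protein, ranked by infection, and a nuclear count of cells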
Reading the numbers: infection score: higher = more virus-infected cells; cell count: higher = more cells in the well
Hit rule: 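Very low infection ranking in both replicate wells (chance probability at most 0.065), then a retest showing infection dropped 1.5-fold or more at p below 0.05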
Calls: active = confirmed: knock-down lowers infection; inactive = not picked or not confirmed
In all, the deposit lists about 22,000 reagents; this is a random part of those that have a named target and a result. Of all reagents, 116 (0.52%) are marked active. 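Calls depend on retest data that are not deposited; infection was ranked per plate without normalising between plates; the unit of the infection score is not given.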 Raw values vary from plate to plate and are shown uncorrected. Unmarked entries are inactive. A plus sign joins genes that one reagent is predicted to hit. Further read-outs or replicates are left out here. No sequences are given here. Not given: the amount of reagent, the time to read-out.

With knock-down of Rpn13 (Regulatory particle non-ATPase 13) [DRSC06379], the record shows infection score, replicate 1 = 11.4; cell count, replicate 1 = 6447. For RpL3 (Ribosomal protein L3) [DRSC16834], the entry reads infection score, replicate 1 = 2.77; cell count, replicate 1 = 2093. For kibra [DRSC14533] the deposit lists infection score, replicate 1 = 14.6; cell count, replicate 1 = 6177. kibra [DRSC23283] gave infection score, replicate 1 = 1.64; cell count, replicate 1 = 6102. kibra [DRSC29376] showed infection score, replicate 1 = 21.9; cell count, replicate 1 = 5869. Depletion of meso18E [DRSC20351] came out at: infection score, replicate 1 = 2.93; cell count, replicate 1 = 5899.

For meso18E [DRSC25315] the deposit lists infection score, replicate 1 = 2.58; cell count, replicate 1 = 6391. Knock-down of Stacl + CG8179 (retired record) [DRSC23019] gave: infection score, replicate 1 = 2.56; cell count, replicate 1 = 6677. Stacl + CG8179 (retired record) [DRSC25838] showed infection score, replicate 1 = 1.61; cell count, replicate 1 = 6204. CG17776 [DRSC18136] scored infection score, replicate 1 = 5.85; cell count, replicate 1 = 6271. With knock-down of CG17776 [DRSC27477], the record shows infection score, replicate 1 = 14.2; cell count, replicate 1 = 2539. olf413 [DRSC11543] showed infection score, replicate 1 = 2.59; cell count, replicate 1 = 5713.

For olf413 [DRSC11679], the values are infection score, replicate 1 = 3.18; cell count, replicate 1 = 6486. olf413 [DRSC11721] gave infection score, replicate 1 = 11.3; cell count, replicate 1 = 6539. Against olf413 [DRSC11833] the deposit lists infection score, replicate 1 = 0.69; cell count, replicate 1 = 6381. bgm (bubblegum) [DRSC03495] showed infection score, replicate 1 = 25.5; cell count, replicate 1 = 5924. Silencing of bgm (bubblegum) [DRSC27103] came out at: infection score, replicate 1 = 5.91; cell count, replicate 1 = 6698. Against CG4650 [DRSC02767], the values are infection score, replicate 1 = 4.2; cell count, replicate 1 = 5828.

Depletion of CG7458 [DRSC11829] gave: infection score, replicate 1 = 7.71; cell count, replicate 1 = 6421. Knock-down of CG7458 [DRSC21340] came out at: infection score, replicate 1 = 3.8; cell count, replicate 1 = 6283. ND-B16.6 (NADH dehydrogenase (ubiquinone) B16.6 subunit) [DRSC18306] gave infection score, replicate 1 = 4.85; cell count, replicate 1 = 6064. After knock-down of ND-B16.6 (NADH dehydrogenase (ubiquinone) B16.6 subunit) [DRSC22600], the record shows infection score, replicate 1 = 8.28; cell count, replicate 1 = 6002. Silencing of ND-B16.6 (NADH dehydrogenase (ubiquinone) B16.6 subunit) [DRSC26200] came out at: infection score, replicate 1 = 16.5; cell count, replicate 1 = 5315.

Only “infection score, replicate 1” (2 entries from above):
CG17776 [DRSC18136] = 5.85
CG17776 [DRSC27477] = 14.2
